Values of other authors as cited in US7083961B1 (priority 2002, dated 2006).

Amino acid sequences for entries named in this document (tags omitted).
UniProt P0C0H6, whole entry: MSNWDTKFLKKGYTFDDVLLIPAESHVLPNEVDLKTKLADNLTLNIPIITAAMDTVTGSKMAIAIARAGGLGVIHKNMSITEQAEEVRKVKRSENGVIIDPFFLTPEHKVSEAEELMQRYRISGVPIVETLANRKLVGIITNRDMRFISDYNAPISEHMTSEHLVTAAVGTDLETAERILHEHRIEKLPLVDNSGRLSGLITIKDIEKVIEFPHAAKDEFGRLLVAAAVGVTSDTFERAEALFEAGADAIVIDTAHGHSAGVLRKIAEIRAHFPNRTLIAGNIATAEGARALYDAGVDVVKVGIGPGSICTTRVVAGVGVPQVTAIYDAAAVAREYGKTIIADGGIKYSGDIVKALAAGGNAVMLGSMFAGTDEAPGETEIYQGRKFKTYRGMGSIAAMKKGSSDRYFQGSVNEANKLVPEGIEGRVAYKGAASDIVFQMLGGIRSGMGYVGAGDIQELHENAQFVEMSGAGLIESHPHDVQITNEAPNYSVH

Target: S. pyogenes IMPDH (Streptococcus pyogenes, UniProt P0C0H6)

SMILES: NC(=O)c1ncn([C@@H]2O[C@H](COP(=O)(O)O)[C@@H](O)[C@H]2O)n1
- Ki: 6 µM
